{"source": "paper PMC10837205", "about": "“LDLR is an entry receptor for Crimean-Congo hemorrhagic fever virus” (2024)", "target": "biotinylated soluble human LDLR (sohLDLR), human, P01130-1 22-788", "experiment": "BLI", "data": [{"substance": "monomeric Gc ectodomain of CCHFV IbAr 10200 strain biotin (biotinylated; site not stated)", "values": [{"measurement": "Kd", "value": 42.6, "unit": "nM"}]}]}
